This note sets out measurements from US20230248844A1, “C[…] ADC OR AN AOC COMPRISING A VHH, AND A SAPONIN OR A LIGAND-SAPONIN CONJUGATE” (SAPREME TECHNOLOGIES B.V., priority 2020, published 2023).

For this assay, the system named is A431 (EGFR++/HER2+/-/CD71+) xenograph tumor. Description: A431 xenograph nude mouse tumor model, 2T2C (Example 13). The assay is classed as in vivo. Conditions: 25 mg/kg cetuximab-(Cys-L-SO1861)^4 i.p. + 0.03 mg/kg toxin conjugate i.v., day 9, 14, then 1 dosing per week; cetuximab positive control (FIG. 21). An excerpt: The 2 target 2-components system (2T2C) is the combination treatment of mAb1-SO1861 and mAb2-protein toxin, (FIG. 1B-D).

Regarding “Cetuximab: monoclonal antibody recognizing and binding human EGFR [reference compound]”, the tumor response result is recorded as “only tumor growth inhibition, but no regression”.
